# In US20220313717A1, “METHODS OF TREATING CRYPTOCOCCUS INFECTIONS” (MATINAS BIOPHARMA NANOTECHNOLOGIES, INC., priority 2019, published 2022):
# Assay: Participant subjective impressions of cAMB versus prior IV AMB (qualitative scale, visual analog)
# Design: species or system human
smiles,measurement,setting,value
"C[C@@H]1[C@H](O)[C@@H](C)/C=C/C=C/C=C/C=C/C=C/C=C/C=C/[C@H](O[C@@H]2O[C@H](C)[C@@H](O)[C@H](N)[C@@H]2O)C[C@@H]2O[C@](O)(C[C@@H](O)C[C@@H](O)[C@H](O)CC[C@@H](O)C[C@@H](O)CC(=O)O[C@H]1C)C[C@H](O)[C@H]2C(=O)O [IV AMB, amphotericin B]",participants willing to receive IV AMB again versus an alternative therapy,Phase 1A pre-participation survey (10/25),40%
same,participants who thought the therapy very convenient,"Phase 1A, cAMB 25/27, IV AMB 15/23 respondents",65%
